Results from article PMC6271856, “Leishmanicidal Evaluation of Tetrahydroprotoberberine and Spirocyclic Erythrina-Alkaloids” (Molecules, 2014).

Tested on: Leishmania amazonensis promastigote forms
Assay: Leishmanicidal MTT assay on promastigote forms
Format: cell-based

## COC1CC23C(=CC(=O)N2CCc2cc4c(cc23)OCO4)C2OC12 (centres unmarked)
CC50 J774 macrophages / IC50 L. amazonensis promastigotes
  SI (Selectivity Index = CC50 drug/IC50 drug): 0.98
Promastigote forms, 48 h treatment, MTT
  L. amazonensis IC50: 48.17 µg/mL
